The values that follow come from article PMC6028965, “Mechanism of vaccinia viral protein B14–mediated inhibition of IκB kinase β activation” (2018).

Assay [1] addresses T1, GST-IKKβ-ULD-SDD (residues 307–678 of human IKKβ), human, O14920 307-678.
T1 sequence: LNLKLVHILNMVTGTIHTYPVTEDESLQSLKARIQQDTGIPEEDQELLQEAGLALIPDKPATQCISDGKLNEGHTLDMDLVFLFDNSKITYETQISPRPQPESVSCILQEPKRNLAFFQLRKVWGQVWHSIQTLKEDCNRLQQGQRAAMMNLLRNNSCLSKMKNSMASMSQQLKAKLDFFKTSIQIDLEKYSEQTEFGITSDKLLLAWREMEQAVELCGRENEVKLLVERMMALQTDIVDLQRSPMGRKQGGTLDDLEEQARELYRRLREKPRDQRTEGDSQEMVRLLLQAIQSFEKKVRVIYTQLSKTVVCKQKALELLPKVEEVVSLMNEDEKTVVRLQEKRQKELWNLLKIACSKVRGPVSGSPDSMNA
Kind of assay: pull-down.

The target in assay [2] is T2, GST-IKKβ-ULD-SDD M4 mutant (residues 408–416 replaced with GGGGS), human (UniProt O14920).
T2 sequence: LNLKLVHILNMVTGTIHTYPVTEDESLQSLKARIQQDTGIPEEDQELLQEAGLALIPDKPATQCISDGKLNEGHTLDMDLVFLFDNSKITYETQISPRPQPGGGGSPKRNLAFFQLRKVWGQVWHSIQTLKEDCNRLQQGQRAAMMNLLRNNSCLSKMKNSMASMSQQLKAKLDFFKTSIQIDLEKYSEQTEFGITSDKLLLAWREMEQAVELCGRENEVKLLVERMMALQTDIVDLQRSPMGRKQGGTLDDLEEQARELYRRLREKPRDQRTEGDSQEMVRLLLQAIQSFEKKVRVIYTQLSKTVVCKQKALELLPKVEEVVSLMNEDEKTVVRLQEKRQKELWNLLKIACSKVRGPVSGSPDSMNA
Kind of assay: pull-down.

In the case of untagged B14 protein, the result in assay [1] was “binds”. The same substance had a decrease in binding relative to the WT construct in assay [2] of 60%.
